Pooled drug test results. Numbers come from NIAID ChemDB, via PubChem.

All rows: whole-cell or culture tests

Inhibition is in % at the dose shown (toxicity tests: loss of growth or viability).

SMILES,organism,strain or isolate,cells,method,conditions,measure,dose,value
O=C1NNC(=O)c2[nH]cnc2N1,West Nile virus,-,HepG2.2.15,cytopathic effect,-,EC50,-,>500 µM
C=C1C=C(C)c2cc3c(COC(C)=O)cc(=O)n(C)c3c3c2N1CO3,Kaposi sarcoma virus,-,BC3,GFP / microscopy,-,EC50,-,0.5 µM
Cc1cccc2c(Nc3ccc(S(N)(=O)=O)cc3)c3ccc([N+](=O)[O-])cc3nc12,Plasmodium falciparum,3D7,Erythrocytes,flow cytometry,-,EC50,-,>13.7 µM
Nc1ncnc2c1ncn2[C@@H]1O[C@H](CO)[C@@H](O)[C@@H]1O,Herpes simplex virus 1,KOS S2242-resistant,HEL,cytopathic effect,-,EC50,-,17.3 µg/mL
O=c1[nH]c(=O)n([C@H]2C[C@H](O)[C@@H](CO)O2)cc1/C=C/Br,Cryptosporidium parvum,-,-,-,-,inhibition,50 µg/mL,7%
CCCCCCCCCCCCNc1nc(=O)c2ncn([C@@H]3C[C@H](O)[C@@H](CO)O3)c2c(=O)[nH]1,West Nile virus,-,HepG2.2.15,cytopathic effect,-,EC50,-,3–10 µM
C=C1CC[C@H](O)C/C1=C/C=C1\CCC[C@]2(C)[C@@H]([C@H](C)CCCC(C)C)CC[C@@H]12,Toxoplasma gondii,RH,-,-,-,inhibition,0.1 µM,>50%
Cc1c(C(N)=O)ncn1C1OC(CO)C(O)C1O,Semliki Forest virus,-,-,cytopathic effect,-,EC50,-,>200 µg/mL
CCOc1ccc(Nc2cc(C)nc3ccc(OC)cc23)cc1,Plasmodium falciparum,3D7,Erythrocytes,flow cytometry,-,EC50,-,1.72 µM
C=CC(=O)Nc1cc(C(C)(C)C)c(O)c(C(C)(C)C)c1,Kaposi sarcoma virus,-,BC3,GFP / microscopy,-,EC50,-,0.5 µM
Cc1cc(NS(=O)(=O)c2ccc(N)cc2)no1,Pneumocystis carinii,-,-,-,5 d,inhibition,100 µM,9%
CC(O)CNCCCCOc1ccc(Cl)cc1Cc1ccccc1,Plasmodium falciparum,K1,Erythrocytes,flow cytometry,-,EC50,-,2.57 µM
CCCCCCCCCCCCCCCCCCNc1nc(=O)c2ncn([C@@H]3O[C@H](CO)[C@@H](O)[C@H]3O)c2c(=O)[nH]1,West Nile virus,-,HepG2.2.15,cytopathic effect,-,EC50,-,5 µM
O=c1[nH]c(=O)n([C@H]2C[C@H](O)[C@@H](CO)O2)cc1C(F)(F)F,Cryptosporidium parvum,-,-,-,-,inhibition,100 µg/mL,89%
C#CC[C@@H](C(=O)N[C@H](/C=C/C(=O)OCC)C[C@@H]1CCNC1=O)n1cccc(NC(=O)c2cc(C)on2)c1=O,Rhinovirus,Serotype 2,H1-HELA,cytopathic effect / XTT,-,EC50,-,0.013 µM
C[C@@H]1[C@H](O)[C@@H](C)/C=C/C=C/CC/C=C/C=C/C=C/C=C/C(O[C@H]2O[C@H](C)[C@@H](O)[C@H](N)[C@@H]2O)CC2O[C@](O)(CC(O)C(O)CCC(O)CC(O)CC(O)CC(=O)O[C@H]1C)CC(O)C2C(=O)O,Cryptococcus spp.,CCUG 18919,-,-,-,MIC,-,8 µg/mL
Cc1ccc2ccc3ccc(C)nc3c2n1,Kaposi sarcoma virus,-,BC3,GFP / microscopy,-,EC50,-,<0.05 µM
NC12CC3CC(CC(C3)C1)C2,Cryptosporidium parvum,-,-,-,-,inhibition,25 µg/mL,7%
CCCCCCCCN(CC1=C(O)c2ccccc2C(=O)C1=O)Cc1ccccc1,Toxoplasma gondii,ATO,-,-,-,EC50,-,1.2 µM
CN[C@@H]1[C@@H](O)[C@@H](O[C@@H]2[C@@H](O)[C@H](O[C@H]3O[C@H](CN)CC[C@H]3N)[C@@H](N)C[C@H]2N)OC[C@]1(C)O,Pseudomonas aeruginosa,S10,-,-,-,MIC,-,2 µg/mL
OC(COc1ccc(OCc2ccccc2)cc1)CN1CCCCC1,Plasmodium falciparum,3D7,Erythrocytes,flow cytometry,-,EC50,-,>15 µM
CC1=CC(=C(c2ccc(N)cc2)c2ccc(N)cc2)C=CC1=N,Kaposi sarcoma virus,-,BC3,GFP / microscopy,-,EC50,-,0.5 µM
O=C1Nc2ncn(Cc3ccccc3)c2C(=O)N(Cc2ccccc2)N1,West Nile virus,-,HepG2.2.15,cytopathic effect,-,EC50,-,3–5 µM
COc1nc(C(Cl)(Cl)Cl)c(Cl)c(OC)c1Cl,Kaposi sarcoma virus,-,BC3,GFP / microscopy,-,EC50,-,>100 µM
Cc1cn([C@@H]2O[C@H](CO)[C@@H](O)[C@@H]2O)c(=O)[nH]c1=O,Herpes simplex virus 1,KOS,HEL,cytopathic effect,-,EC50,-,0.27 µg/mL
O=C(O)P(=O)(O)O,Cryptosporidium parvum,-,-,-,-,inhibition,10 µg/mL,1%
CO/N=C(/C(=O)N[C@@H]1C(=O)N2C(C(=O)[O-])=C(C[N+]3(C)CCCC3)CS[C@H]12)c1csc(N)n1,Pseudomonas aeruginosa,S10,-,-,-,MIC,-,4 µg/mL
CC(C)CCCCCCCCCCCCC(=O)NCC(=O)NC1C(C)OC(Nc2ncnc3nc[nH]c23)C(O)C1O,Kaposi sarcoma virus,-,BC3,GFP / microscopy,-,EC50,-,<0.05 µM
Nc1ncnc2c1ncn2CCOCP(=O)(O)O,Herpes simplex virus 1,KOS PMEA-resistant,HEL,cytopathic effect,-,EC50,-,68 µg/mL
COc1ccc(Cc2c3cc(OC)c(OC)cc3cc[n+]2C)cc1OC,Plasmodium falciparum,K1,Erythrocytes,flow cytometry,-,EC50,-,2.06 µM
Nc1nc(=O)n([C@@H]2O[C@H](CO)[C@@H](O)[C@@H]2F)cc1I,Herpes simplex virus 1,KOS,HEL,cytopathic effect,-,EC50,-,0.04 µg/mL
CCCCCCCCCCCCNc1nc(=O)c2ncn(Cc3ccc(OC)cc3)c2c(=O)[nH]1,West Nile virus,-,HepG2.2.15,cytopathic effect,-,EC50,-,5 µM
Cc1cn([C@H]2C[C@H](N=[N+]=[N-])[C@@H](CO)O2)c(=O)[nH]c1=O,Cryptosporidium parvum,-,-,-,-,inhibition,25 µg/mL,15%
CCCCCCCCCCCCNc1nc(=O)c2ncn([C@H]3C[C@H](O)[C@@H](CO)O3)c2c(=O)[nH]1,West Nile virus,-,HepG2.2.15,cytopathic effect,-,EC50,-,3–10 µM
O=C(O)CP(=O)(O)O,Herpes simplex virus 1,KOS PMEDAP-resistant,HEL,cytopathic effect,-,EC50,-,72.7 µg/mL
Nc1ncnc2c1ncn2C[C@H](O)CO,Vesicular stomatitis virus,-,ESM,cytopathic effect,-,EC50,-,15 µg/mL
CO[C@H]1C[C@H](O[C@H]2CC[C@]3(C=O)[C@H]4CC[C@]5(C)[C@@H](C6=CC(=O)OC6)CC[C@]5(O)[C@@H]4CC[C@]3(O)C2)O[C@H](C)[C@H]1O[C@H]1O[C@H](CO)[C@@H](O)[C@H](O)[C@H]1O,Kaposi sarcoma virus,-,BC3,GFP / microscopy,-,EC50,-,0.1 µM
O=C1Nc2nc[nH]c2C(=O)N(Cc2ccccc2)N1,West Nile virus,-,HepG2.2.15,cytopathic effect,-,EC50,-,3–5 µM
COC(=O)[C@@]12OC[C@]34[C@H]([C@@H](O)[C@@H]1O)[C@@]1(C)CC(=O)C(O)=C(C)[C@@H]1C[C@H]3OC(=O)[C@H](OC(=O)C=C(C)C)[C@@H]24,Kaposi sarcoma virus,-,BC3,GFP / microscopy,-,EC50,-,<0.05 µM
Nc1ccc(S(=O)(=O)Nc2cc(I)cc(I)c2)cc1,Pneumocystis carinii,-,-,-,5 d,inhibition,100 µM,95%

a–b is a range or a potency band. An empty or dashed field is not shown. Neighbouring rows are from separate reports. ECn: concentration that inhibits the pathogen or its effect by n%.